Laboratory results as given in publication doi:10.1101/2021.08.09.455663.

Key:
[1] = tested on: pSTAT1d (phosphorylated STAT1 core dimer) + TgIST-T2; test: competition EMSA; conditions: excess cold probe reduces 2nd GAF
[2] = tested on: pSTAT1d (phosphorylated STAT1 core dimer) + TgIST-T2; test: EMSA supershift; conditions: TgIST-T2 titrated onto preformed pSTAT1d-DNA, 2nd GAF
[3] = tested on: pSTAT1d (phosphorylated STAT1 core dimer) + GST-TgIST-R2; test: EMSA supershift; conditions: 2nd GAF

Measured: binding result

GATGTATTTCCCAGAAAAGG (double strand) [GAS probe (Fc-gamma receptor gene)]
binds: [1] | [2] | [3]

For at least one entry, the source does not settle the construct or the ends of the probe.
